Results deposited as PubChem BioAssay AID1259414 (Drosophila RNAi Screening Center, 2018)
Test: 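Genome-wide screen for host control of endosymbiont load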 (primary screen). Cells: Drosophila JW18 cells infected with Wolbachia. Reagents: long dsRNA against Drosophila genes, 0.25 µg dsRNA per well of a 384-well plate. Timing: 5 days. Challenge: cells persistently infected with Wolbachia before knock-down; no added drug. Measurement: 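Imaged fluorescence in situ signal for Wolbachia 23S rRNA per DAPI-counted host cell, given as a robust z-score within each plate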. Scale: Wolbachia per cell robust z: higher = more Wolbachia per host cell than the plate typical. Rule for the call: 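Active if absolute robust z reaches 1.5 in two or more of three replicates, leaving out multi- or no-target dsRNAs, genes unexpressed in JW18 and A1 wells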.
In all, the deposit lists about 24,000 reagents; shown is an unselected part of those that have a named target and a result. In the full data, about 1,210 (5%) got an active call. 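Inactive calls also include excluded dsRNAs with several or no targets, genes unexpressed in JW18, and well A1, regardless of score.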 A number with no mark means an inactive call. A plus sign joins genes that one reagent is predicted to hit. No sequences are given here.

no.	predicted target	amplicon	Wolbachia per cell robust z, rep 1	Wolbachia per cell robust z, rep 2	Wolbachia per cell robust z, rep 3
1	CG31955	DRSC00285	-2.61	0.0642	0.647
2	CCHa2-R (CCHamide-2 receptor)	DRSC04870	0.593	-0.205	-7.85
3	CCHa2-R (CCHamide-2 receptor)	DRSC04871	-3.11	0.0513	0.766
4	CG6231	DRSC15997	-1.18	-0.364	-2.57
5	Eig71Eb (Ecdysone-induced gene 71Eb)	DRSC11149	0.408	-0.985	-1.41
6	CG3598	DRSC18471	-4.65	0.548	-1.08
7	CG3598	DRSC26825	-0.0383	-0.306	-0.415
8	hog	DRSC19057	0.456	-0.462	-0.128
9	hog	DRSC26603	0.907	-0.937	-0.537
10	Pen (Pendulin)	DRSC03396	1.62	1.2	0.881
11	Pen (Pendulin)	DRSC39160	-0.832	0.522	0.816
12	Tsf2 (Transferrin 2)	DRSC09751	-6.87	-0.585	-0.521
13	CG15905	DRSC06591	0.0103	-0.00302	0.264

Next part, starting with the last 3 of the part before.
no.	predicted target	amplicon	Wolbachia per cell robust z, rep 1	Wolbachia per cell robust z, rep 2	Wolbachia per cell robust z, rep 3
11	Pen (Pendulin)	DRSC39160	-0.832	0.522	0.816
12	Tsf2 (Transferrin 2)	DRSC09751	-6.87	-0.585	-0.521
13	CG15905	DRSC06591	0.0103	-0.00302	0.264
14	CG32793	DRSC18145	-3.99	0.133	-0.339
15	CG32793	DRSC18194	-0.574	0.406	-1.06
16	CG32793	DRSC28737	0.263	0.0892	-1.41
17	Tsp42Eb + CG30160	DRSC04961	-0.892	-7.7	-1.39
18	CG14185	DRSC10184	0.584	-2.38	1.29
19	CG43326 + CG43325	DRSC04157	1.11	1.01	-5.25
20	Ggt-1 (gamma-glutamyl transpeptidase)	DRSC19993	-5.09	-1.99	0.0167
21	Ggt-1 (gamma-glutamyl transpeptidase)	DRSC27144	0.268	0.185	0.912
22	SCAR	DRSC03426	-0.782	-0.568	-0.541
23	Loxl1 (Lysyl oxidase-like 1)	DRSC14303	0.46	-2.77	0.541
24	CG18563	DRSC02676	-1.63	-2.96	-0.154
25	CG12594	DRSC14532	-0.934	-3.28	-4.06
26	CG12594	DRSC27229	0.404	0.424	-0.685
27	CG32846	DRSC08012	1.1	0.265	0.356
28	CG32846	DRSC27074	-0.351	-0.527	-0.644
